# Publication PMC10305189, “Synthesis, Bioactivity and Molecular Docking of Nereistoxin Derivatives Containing Phosphonate” (2023)
# Amino acid sequences for entries named in this document (tags omitted). Residues count along the entry.
# UniProt P22303, 32-614 limits assumed: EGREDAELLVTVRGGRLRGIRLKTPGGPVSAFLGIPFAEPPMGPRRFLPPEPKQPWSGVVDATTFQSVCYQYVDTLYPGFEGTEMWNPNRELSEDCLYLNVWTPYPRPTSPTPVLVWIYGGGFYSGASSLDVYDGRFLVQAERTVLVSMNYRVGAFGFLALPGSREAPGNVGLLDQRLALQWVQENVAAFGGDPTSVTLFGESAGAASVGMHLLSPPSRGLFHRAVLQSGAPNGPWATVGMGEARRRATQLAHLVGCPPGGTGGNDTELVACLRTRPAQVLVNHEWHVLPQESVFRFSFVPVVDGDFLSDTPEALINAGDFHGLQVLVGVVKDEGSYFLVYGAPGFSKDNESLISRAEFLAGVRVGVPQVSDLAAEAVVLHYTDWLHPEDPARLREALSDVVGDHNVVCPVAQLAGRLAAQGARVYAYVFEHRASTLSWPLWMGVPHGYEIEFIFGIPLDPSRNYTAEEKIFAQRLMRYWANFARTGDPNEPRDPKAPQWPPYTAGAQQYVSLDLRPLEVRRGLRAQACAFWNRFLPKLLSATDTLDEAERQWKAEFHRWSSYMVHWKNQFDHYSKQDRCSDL
# Biological target: human acetylcholinesterase (AChE) (Homo sapiens, UniProt P22303)
# Assay: AChE inhibition, modified Ellman's method (in vitro)
# Settings: 2 mmol/L, n = 3
smiles,measurement,setting,value
CN(C)C1CSSC1,AChE Inhibition Rate (%) 5 min,5 min,66.02%
same,AChE Inhibition Rate (%) 20 min,20 min,53.98%
same,AChE Inhibition Rate (%) 30 min,30 min,41.27%
